A mixed list of measured activities; the numbers were collected in NIAID ChemDB.

Common to all: whole-cell or culture tests; species: Candida albicans; read-out: MIC

Conditions beyond the fields shown may differ between rows. a–b is a range or a potency band. Blank or dashed fields: not listed here.

SMILES,strain or isolate,result
c1ccc(N2COc3c(ccc4ccccc34)C2)cc1,MTCC 277,25 µg/mL
CC[C@H]1OC(=O)C[C@@H](O)[C@H](C)[C@@H](OC2OC(C)C(O)C(N(C)C)C2O)[C@@H](CCN2CC(C)CC(C)C2)C[C@@H](C)C(=O)/C=C/C=C/[C@@H]1COC1CCOCC1,-,1.25 µg/mL
Cc1c(O)cccc1C(=O)N[C@@H](CSc1ccccc1)[C@H](O)CN1C[C@H]2CCCC[C@H]2C[C@H]1C(=O)NC(C)(C)C,I157D,>64 µg/mL
O[C@](Cn1cncn1)(Cn1cnc(/C=C/c2ccc(OCC(F)(F)C(F)F)cc2)n1)c1ccc(F)cc1F,CA505,0.9 µM
COc1ccc(C2CC(=NO)CC(c3ccc(OC)cc3)N2OCCc2nc3ccccc3o2)cc1,-,50 µg/mL
Cc1ccc2c(c1)c1nnc(N3CC[N+](C)([O-])CC3)nc1n2C,C316,>125 µg/mL
CCC(C)/C=C(C)/C=C/C=C(\C)CC(C)CC(C)CC(/C=C(C)/C=C/C(O)C(C)(C)c1cc(O)c([C@@H]2O[C@H](CO)C[C@H](O)[C@H]2O)c(=O)o1)CO,M9001,>100 µg/mL
CN1C(=O)CSc2cc(C(Cn3cncn3)C(O)Cn3cncn3)ccc21,CA6,>250 µg/mL
ON=C1CC(c2ccccc2)N(OCCc2nc3ccccc3o2)C(c2ccccc2)C1,-,100 µg/mL
CCC(C)n1ncn(-c2ccc(N3CCN(c4ccc(OC[C@H]5CO[C@](Cn6cncn6)(c6ccc(Cl)cc6Cl)O5)cc4)CC3)cc2)c1=O,ATCC 10231,>0.015 µg/mL
CN1C(=O)CSc2cc(C(Cn3ccnc3)OCc3ccc(Cl)cc3)ccc21,CA6,46 µg/mL
CC[C@H]1OC(=O)C[C@@H](O)[C@H](C)[C@@H](OC2OC(C)C(O)C(N(C)C)C2O)[C@@H](CCOc2ccccc2)C[C@@H](C)C(=O)/C=C/C=C/[C@@H]1COC1OC(C)C=CC1OC,-,50 µg/mL
CC(C)(C)c1cc(C(C)(C)C)c2nc(C(=O)NCC(=O)O)oc2c1,ATCC 44859,>500 µM
CC(=C/C=C/C(=O)O)/C=C/C=C(\C)C(O)C(C)C(=O)O[C@H]1C[C@H](C)C=C2C=C[C@@]3(C)O[C@@H](O)CC(=O)[C@]3(C)[C@H]21,ATCC 10231,3.12 µg/mL
Cc1cc(NC(=O)c2ccc(NC(=O)COc3ccc(Cl)cc3Cl)cc2)no1,ATCC 10231,>100 µg/mL
Cc1ccccc1N1COc2c(ccc3ccccc23)C1,MTCC 277,15 µg/mL
Cc1cc(NC(=O)c2ccc(NC(=O)COc3ccccc3C)cc2)no1,ATCC 10231,>100 µg/mL
Clc1ccc(Nc2nnc(CSc3nnc(-c4ccco4)n3-c3ccc(Br)cc3)s2)cc1,ATCC 10231,>32 µg/mL
CC(C)C1Nc2cc(C(C)(C)C)cc(C(C)(C)C)c2O1,ATCC 44859,>500 µM
CCCCCOc1ccc(-c2cc(-c3ccc(C(=O)N[C@H]4C[C@@H](O)[C@@H](O)NC(=O)[C@@H]5[C@@H](O)[C@@H](C)CN5C(=O)[C@H]([C@H](O)CC(N)=O)NC(=O)[C@H]([C@H](O)[C@@H](O)c5ccc(O)c(OS(=O)(=O)O)c5)NC(=O)[C@@H]5C[C@@H](O)CN5C(=O)[C@H]([C@@H](C)O)NC4=O)cc3)no2)cc1,2733A,0.125 µg/mL
CN1C(=O)CSc2cc(C(Cn3ccnc3)OCc3ccc(Cl)cc3Cl)ccc21,CA6,>250 µg/mL
O=c1[nH][nH]c2c1C(c1ccccc1)CC(c1ccc3ccccc3c1)=C2,-,50 µg/mL
Oc1ccc(C(=S)N2CCN=C2c2ccccc2)c(O)c1,ATCC 10231,100 µg/mL
C[C@H]1[C@H](O)[C@@H](C)/C=C/C=C/C=C/C=C/C=C/C=C/C=C/[C@H](O[C@@H]2O[C@H](C)[C@@H](O)[C@H](N)[C@@H]2O)C[C@@H]2O[C@](O)(C[C@@H](O)C[C@@H](O)CC[C@H](O)[C@@H](O)C[C@@H](O)CC(=O)O[C@H]1C)C[C@H](O)[C@H]2C(=O)O,2005E,0.002 µg/mL
COc1ccc(-c2cc(-c3ccc(C)cc3)nc(NC(=O)CN3CCOCC3)n2)cc1,-,200 µg/mL
Cc1cc(NC(=O)c2cccc(NC(=O)COc3ccc(Cl)cc3Cl)c2)no1,ATCC 10231,>100 µg/mL
CC(=O)N1CCN(c2ccc(OC[C@H]3CO[C@](Cn4ccnc4)(c4ccc(Cl)cc4Cl)O3)cc2)CC1,ATCC 10231,5 µg/mL
Cc1cc(NC(=O)c2ccccc2NC(=O)COc2ccccc2C)no1,ATCC 10231,>100 µg/mL
C[C@H](N)C(=O)NC(C(=O)O)n1cc(F)c(=O)[nH]c1=O,B311,25 µg/mL
Cc1ccc(C(C)C)cc1,M1,0.16–0.32 µg/mL
Oc1ccc(C(=S)N2CCN=C2Cc2cccc3ccccc23)c(O)c1,10 isolates,50 µg/mL
CN1C(=O)CSc2cc(C(O)Cn3cncn3)ccc21,CA6,>250 µg/mL
C=CCNC(=S)NNC(=O)CSc1nnc(-c2ccco2)n1-c1ccc(Br)cc1,ATCC 10231,8 µg/mL
Cc1cc(NC(=O)c2ccccc2NC(=O)COc2ccc(Cl)cc2)no1,ATCC 10231,>100 µg/mL
CC(C)(C)c1cc(C(C)(C)C)c2oc(C(N)=O)nc2c1,ATCC 44859,62.5 µM
O=c1[nH][nH]c2c1C(c1ccc([N+](=O)[O-])cc1)CC(c1ccc3ccccc3c1)=C2,-,50 µg/mL
O=C(CSc1nnc(-c2ccco2)n1-c1ccc(Br)cc1)NNC(=S)Nc1ccc([N+](=O)[O-])cc1,ATCC 10231,4 µg/mL
Fc1ccc(CCCCn2c3c(c4cc(F)ccc42)CNCC3)cc1,ATCC 62376,0.78–3.12 µg/mL
CCC(C)n1ncn(-c2ccc(N3CCN(c4ccc(OC[C@H]5CO[C@](Cn6cncn6)(c6ccc(Cl)cc6Cl)O5)cc4)CC3)cc2)c1=O,ATCC 10231,10 µg/mL
CC[C@H]1OC(=O)C[C@@H](O)[C@H](C)[C@@H](OC2OC(C)C(O)C(N(C)C)C2O)[C@@H](CCN2CC(C)CC(C)C2)C[C@@H](C)C(=O)/C=C/C=C/[C@@H]1CNN1CCC2CCCCC21,-,0.625 µg/mL
C[C@H]1[C@H](O)[C@@H](C)/C=C/C=C/C=C/C=C/C=C/C=C/C=C/[C@H](O[C@@H]2O[C@H](C)[C@@H](O)[C@H](N)[C@@H]2O)C[C@@H]2O[C@](O)(C[C@@H](O)C[C@@H](O)CC[C@H](O)[C@@H](O)C[C@@H](O)CC(=O)O[C@H]1C)C[C@H](O)[C@H]2C(=O)O,B311,1.25 µg/mL
CCCCNC(=S)NNC(=O)CSc1nnc(-c2ccco2)n1-c1ccc(Br)cc1,ATCC 10231,8 µg/mL
ON=C1CC(c2ccc(Cl)cc2)N(OCCc2nc3ccccc3o2)C(c2ccc(Cl)cc2)C1,-,50 µg/mL
Cc1cc(NC(=O)c2cccc(NC(=O)COc3ccccc3C)c2)no1,ATCC 10231,>100 µg/mL
CC[C@H]1OC(=O)C[C@@H](O)[C@H](C)[C@@H](OC2OC(C)C(O)C(N(C)C)C2O)[C@@H](CCN2CC(C)CC(C)C2)C[C@@H](C)C(=O)/C=C/C=C/[C@@H]1CSc1ncccn1,-,10 µg/mL
CCOc1ccc(N2COc3c(ccc4ccccc34)C2)cc1,MTCC 277,10 µg/mL
CC[C@H]1OC(=O)C[C@@H](O)[C@H](C)[C@@H](OC2OC(C)C(O)C(N(C)C)C2O)[C@@H](CCN2CC(C)CC(C)C2)C[C@@H](C)C(=O)/C=C/C=C/[C@@H]1COS(=O)(=O)c1ccccc1,-,1.25 µg/mL
O=[N+]([O-])c1ccc(Nc2nnc(CSc3nnc(-c4ccco4)n3-c3ccc(Br)cc3)s2)cc1,ATCC 10231,>8 µg/mL
CCOC(=O)Cc1nnnn1C(=S)c1ccc(O)cc1O,10 isolates,25 µg/mL
CC[C@H]1OC(=O)C[C@@H](O)[C@H](C)[C@@H](OC2OC(C)C(O)C(N(C)C)C2O)[C@@H](CCN2CC(C)CC(C)C2)C[C@@H](C)C(=O)/C=C/C=C/[C@@H]1COc1ccccc1,-,1.25 µg/mL

5 of the rows above, restated:

SMILES,strain or isolate,result
C[C@H]1[C@H](O)[C@@H](C)/C=C/C=C/C=C/C=C/C=C/C=C/C=C/[C@H](O[C@@H]2O[C@H](C)[C@@H](O)[C@H](N)[C@@H]2O)C[C@@H]2O[C@](O)(C[C@@H](O)C[C@@H](O)CC[C@H](O)[C@@H](O)C[C@@H](O)CC(=O)O[C@H]1C)C[C@H](O)[C@H]2C(=O)O,2005E,0.002 µg/mL
Cc1cc(NC(=O)c2ccc(NC(=O)COc3ccccc3C)cc2)no1,ATCC 10231,>100 µg/mL
CN1C(=O)CSc2cc(C(Cn3cncn3)C(O)Cn3cncn3)ccc21,CA6,>250 µg/mL
C[C@H](N)C(=O)NC(C(=O)O)n1cc(F)c(=O)[nH]c1=O,B311,25 µg/mL
CC[C@H]1OC(=O)C[C@@H](O)[C@H](C)[C@@H](OC2OC(C)C(O)C(N(C)C)C2O)[C@@H](CCOc2ccccc2)C[C@@H](C)C(=O)/C=C/C=C/[C@@H]1COC1OC(C)C=CC1OC,-,50 µg/mL